# Laboratory results reported in patent US20220213151, “COMPOSITIONS AND METHODS FOR TREATMENT OF DISTENTABLE TISSUES” (published 2022).
# Where two headings read alike, the source gives them in different places.
# Assays:
# [1] = target: rhu EGFR (Fc), human (rhu), P00533 25-645
# [2] = target: rhu EGFR (Fc), human (rhu), P00533 25-645; test: SPR, captured rhuEGFR (~275 RU), single 300 nM injection; buffer: PBS P
# [3] = target: rhu EGFR (Fc), human (rhu), P00533 25-645; test: SPR, captured rhuEGFR (~275 RU), single 300 nM injection; buffer: PBS P pH 6.0
# [4] = target: rhu EGFR (Fc), human (rhu), P00533 25-645; test: SPR, captured rhuEGFR (~275 RU), single 300 nM injection; buffer: PBS P pH 7.4
# [5] = target: rhu EGFR (Fc), human (rhu), P00533 25-645; test: SPR, captured rhuEGFR (~275 RU), single 300 nM injection; buffer: PBS P pH 8.0
substance,measurement,setting,value
A-dmDT390-EGF-Kd+,Kd,[1],0.275 nM
same,koff,[1],6.95e-05 s⁻¹
same,kon,[1],252000 m^-1 s^-1
same,Kd,[2],0.076 nM
same,koff,[2],3.66e-05 s⁻¹
same,kon,[2],479000 m^-1 s^-1
same,Kd,[3],1.28 nM
same,koff,[3],0.000351 s⁻¹
same,kon,[3],273000 m^-1 s^-1
same,Kd,[4],0.076 nM
same,koff,[4],3.66e-05 s⁻¹
same,kon,[4],479000 m^-1 s^-1
same,Kd,[5],0.07 nM
same,koff,[5],4.07e-05 s⁻¹
same,kon,[5],581000 m^-1 s^-1
